Target: HA-NanoLuc-VAMP2, P63027

B1: botulinum neurotoxin type B (protein)
chain: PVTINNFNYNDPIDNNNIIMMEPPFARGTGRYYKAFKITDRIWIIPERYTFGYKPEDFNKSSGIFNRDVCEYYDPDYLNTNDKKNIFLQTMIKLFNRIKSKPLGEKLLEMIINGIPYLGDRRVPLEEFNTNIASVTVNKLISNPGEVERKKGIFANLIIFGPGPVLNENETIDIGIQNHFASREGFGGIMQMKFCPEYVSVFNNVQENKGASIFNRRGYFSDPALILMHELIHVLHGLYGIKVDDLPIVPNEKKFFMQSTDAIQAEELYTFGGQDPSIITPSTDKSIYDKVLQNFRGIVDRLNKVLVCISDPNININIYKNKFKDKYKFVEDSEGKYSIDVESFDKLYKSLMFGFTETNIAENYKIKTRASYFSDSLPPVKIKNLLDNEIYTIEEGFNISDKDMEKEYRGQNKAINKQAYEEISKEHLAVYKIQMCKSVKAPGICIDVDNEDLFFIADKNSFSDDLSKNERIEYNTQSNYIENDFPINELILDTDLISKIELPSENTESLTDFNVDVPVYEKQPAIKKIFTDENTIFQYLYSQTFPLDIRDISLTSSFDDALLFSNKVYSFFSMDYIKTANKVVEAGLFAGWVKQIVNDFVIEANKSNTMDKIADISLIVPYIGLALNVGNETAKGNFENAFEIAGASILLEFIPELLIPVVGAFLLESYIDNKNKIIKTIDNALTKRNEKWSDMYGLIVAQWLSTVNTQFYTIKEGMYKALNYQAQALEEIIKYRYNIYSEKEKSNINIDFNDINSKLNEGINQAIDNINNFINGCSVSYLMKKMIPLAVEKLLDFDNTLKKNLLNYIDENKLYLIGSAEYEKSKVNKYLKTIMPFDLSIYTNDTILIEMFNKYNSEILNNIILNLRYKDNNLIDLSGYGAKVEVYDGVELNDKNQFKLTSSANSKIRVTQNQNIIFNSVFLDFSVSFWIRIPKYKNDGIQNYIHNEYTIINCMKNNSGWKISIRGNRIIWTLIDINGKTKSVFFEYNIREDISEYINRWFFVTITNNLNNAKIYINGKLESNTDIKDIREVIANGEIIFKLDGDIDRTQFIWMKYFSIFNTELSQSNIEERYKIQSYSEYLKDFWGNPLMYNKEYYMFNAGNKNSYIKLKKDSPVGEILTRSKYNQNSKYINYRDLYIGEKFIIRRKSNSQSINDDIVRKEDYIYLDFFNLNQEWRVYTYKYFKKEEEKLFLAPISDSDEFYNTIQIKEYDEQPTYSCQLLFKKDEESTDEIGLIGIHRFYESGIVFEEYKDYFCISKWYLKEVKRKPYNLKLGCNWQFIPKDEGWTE
lowest toxin concentration with cleavage above the baseline, NanoLuc ELISA assay: detect VAMP cleavage by BoNT/B above the baseline down to 30 pM
